PubChem BioAssay AID624099, ICCB-Longwood – 2012
Aim: 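Knock-downs relieving repression by E2 of an HPV18 LCR luciferase reporter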 (primary screen). Cells: human C33A cervical carcinoma cells (HPV-negative) stably expressing BPV1 E2 and an HPV18 LCR luciferase reporter. Reagents: siRNA pool against human genes, 40 nM. Time to read-out: 72 h. Read-out: 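HPV18 LCR reporter light per well, converted to plate-wise z-scores that exclude control wells, and averaged over triplicate plates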. Reading the numbers: mean z-score and z-score: higher = stronger reporter signal, weaker E2 silencing. Active means: 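Hit if mean z-score reaches 2 and two or more of three replicate z-scores also reach 2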.
The deposit covers about 21,000 reagents; this is a part drawn at random. 497 of them (2.4%) count as active. 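Higher z means weaker E2 silencing; only reporter increases were scored, and knock-downs that hurt cell survival may mask genuine repressor factors.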 The numbers tell different reagents against one gene apart.

gene symbol,reagent,mean z-score,"z-score, replicate A","z-score, replicate B","z-score, replicate C",activity call
GLYATL3 (GeneID 389396),1,0.52,0.29,0.53,0.75,inactive
ABHD4 (GeneID 63874),1,-0.79,-0.57,-0.93,-0.86,inactive
RGPD4 (GeneID 285190),1,1.86,2.06,2,1.52,inactive
ZNF667-AS1 (GeneID 100128252),1,-1.61,-2.03,-1.75,-1.05,inactive
MPC1L (GeneID 347411),1,0.3,0.31,0.52,0.08,inactive
CCL23 (GeneID 6368),1,3.1,2.99,3.21,3.11,active
LIPF (GeneID 8513),1,-0.61,-0.6,-0.56,-0.68,inactive
FAM86GP (GeneID 387745),1,1.21,1.56,0.64,1.43,inactive
GLCCI1 (GeneID 113263),1,2,1.94,2.07,2.01,active
PLPP5 (GeneID 84513),1,-0.07,-0.35,-0.01,0.14,inactive
CACYBP (GeneID 27101),1,-0.08,0.22,-0.02,-0.45,inactive
CASP9 (GeneID 842),1,0.92,1.07,0.92,0.78,inactive
EEA1 (GeneID 8411),1,0.99,1.12,1.11,0.74,inactive
PLA2G4E (GeneID 123745),1,0.05,0,0.13,0,inactive
PLA2G4E (GeneID 123745),2,-0.95,-0.84,-1.19,-0.81,inactive
RAB23 (GeneID 51715),1,0.15,0.16,0.35,-0.06,inactive
AWAT1 (GeneID 158833),1,2.65,2.48,2.78,2.69,active
OTUD1 (GeneID 220213),1,0.22,0.42,-0.29,0.53,inactive
NAB1 (GeneID 4664),1,-1.79,-1.84,-1.74,-1.78,inactive
STC2 (GeneID 8614),1,-0.99,-0.94,-1.07,-0.96,inactive
UFSP2 (GeneID 55325),1,1.63,1.47,1.73,1.67,inactive
SH3TC1 (GeneID 54436),1,-0.06,-0.01,0.01,-0.18,inactive

Sorted by “mean z-score” (ascending): some entries from above.
gene symbol,reagent,mean z-score,"z-score, replicate A","z-score, replicate B","z-score, replicate C",activity call
PLA2G4E (GeneID 123745),2,-0.95,-0.84,-1.19,-0.81,inactive
PLA2G4E (GeneID 123745),1,0.05,0,0.13,0,inactive
RAB23 (GeneID 51715),1,0.15,0.16,0.35,-0.06,inactive
CASP9 (GeneID 842),1,0.92,1.07,0.92,0.78,inactive
EEA1 (GeneID 8411),1,0.99,1.12,1.11,0.74,inactive
AWAT1 (GeneID 158833),1,2.65,2.48,2.78,2.69,active

Next results follow.
gene symbol,reagent,mean z-score,"z-score, replicate A","z-score, replicate B","z-score, replicate C",activity call
DCAF12L1 (GeneID 139170),1,-1.64,-1.87,-1.51,-1.55,inactive
GRPEL1 (GeneID 80273),1,-0.3,-0.23,-0.33,-0.36,inactive
INVS (GeneID 27130),1,0.72,0.75,1.13,0.29,inactive
TUBB2B (GeneID 347733),1,-1.44,-1.41,-1.38,-1.52,inactive
LTBP2 (GeneID 4053),1,1.07,1.24,1.16,0.82,inactive
EIF4EBP3 (GeneID 8637),1,-0.78,-0.73,-0.7,-0.9,inactive
IGSF9B (GeneID 22997),1,-0.31,-0.5,0.04,-0.47,inactive
IGSF9B (GeneID 22997),2,-0.7,-0.46,-0.74,-0.91,inactive
TESK2 (GeneID 10420),1,-0.6,-0.51,-0.69,-0.61,inactive
OR7E35P (GeneID 391632),1,1,0.95,1.3,0.75,inactive
NAA30 (GeneID 122830),1,-0.42,-0.67,-0.29,-0.29,inactive
C19orf48P (GeneID 84798),1,0.05,0.03,-0.39,0.52,inactive
NPTN (GeneID 27020),1,0.35,0.42,0.36,0.27,inactive
HIGD1B (GeneID 51751),1,-0.15,-0.19,-0.13,-0.12,inactive
BRI3 (GeneID 25798),1,-0.47,-0.35,-0.59,-0.47,inactive
VPS36 (GeneID 51028),1,-0.48,-0.87,-0.02,-0.55,inactive
HSD17B6 (GeneID 8630),1,-0.52,-0.58,-0.39,-0.59,inactive
OIP5 (GeneID 11339),1,0.35,0.15,0.34,0.55,inactive
TAS1R3 (GeneID 83756),1,0.76,0.96,0.67,0.65,inactive
SNW1 (GeneID 22938),1,1.32,1.09,1.5,1.39,inactive
DNAJC11 (GeneID 55735),1,-1.68,-2.09,-1.49,-1.46,inactive
F2 (GeneID 2147),1,1.06,1.15,1.01,1.01,inactive
PCDHGA9 (GeneID 56107),1,-1.66,-1.97,-1.47,-1.54,inactive
OR5B2 (GeneID 390190),1,0.44,0.07,0.81,0.43,inactive
FLJ35700 (retired record) (GeneID 285736),1,0.36,0.36,0.25,0.46,inactive
FBXO33 (GeneID 254170),1,0.12,0.29,0.12,-0.05,inactive
GAS2L1 (GeneID 10634),1,-1.01,-1.14,-1.13,-0.76,inactive
SNHG32 (GeneID 50854),1,0.06,-0.09,-0.17,0.45,inactive
COA6 (GeneID 388753),1,-0.54,-0.38,-0.69,-0.55,inactive
LINC02393 (GeneID 400087),1,0.65,0.93,0.74,0.29,inactive
ADGRB1 (GeneID 575),1,-0.73,-0.71,-0.91,-0.56,inactive
WDR82P1 (GeneID 728505),1,-1.5,-1.44,-1.34,-1.71,inactive
RAB6B (GeneID 51560),1,1.31,1.1,1.26,1.56,inactive
IL4 (GeneID 3565),1,-1.25,-1.26,-1.1,-1.38,inactive
NLGN4Y (GeneID 22829),1,0.61,0.39,0.94,0.51,inactive
